Measurements taken from ChEMBL document CHEMBL1124552 (J Med Chem, 1989).

Legend:
[1] = First order rate constant for Alkylation reaction by the compound (50 mM) at temperature 38 degrees C with 1 M Tris at pH 7.4
[2] = Second order rate constant for Alkylation reaction by the compound (17 mM) at temperature 47 degree C with 1 M lutidine at pH 7.4 in the presence of 10 mol equiv of 2-mercaptoethanol
[3] = Second order rate constant for Alkylation reaction by the compound (17 mM) at temperature 37 degree C with 1 M Tris at pH 7.4 in the presence of 10 mol equiv of 2-mercaptoethanol
[4] = First order rate constant for Alkylation reaction by the compound (17 mM) at temperature 37 degree C with 1 M Tris at pH 7.4 in the presence of 10 mol equiv of 2-mercaptoethanol
[5] = Second order rate constant for Alkylation reaction by the compound (12 mM) at temperature 20 degrees C with 1 M lutidine at pH 7.4 in the presence of 50 mol equiv of 2-mercaptoethanol
[6] = First order rate constant for Alkylation reaction by the compound (17 mM) at temperature 27 degree C with 1 M lutidine at pH 7.4 in the presence of 10 mol equiv of 2-mercaptoethanol
[7] = Pka value at 20 degrees C; ranges from 4.6-4.8
[8] = First order rate constant for Alkylation reaction by the compound (12 mM) at temperature 20 degrees C with 1 M lutidine at pH 7.4 in the presence of 50 mol equiv of 2-mercaptoethanol
[9] = First order rate constant for Alkylation reaction by the compound (17 mM) at temperature 37 degree C with 1 M lutidine at pH 7.4 in the presence of 10 mol equiv of 2-mercaptoethanol

With `NP(=O)(O)N(CCCl)CCCl` the K1 [1] was 37.1 10e-3 min-1, the K2 [2] was 44.3 10e-3 min-1 and the K2 [3] was 32.7 10e-3 min-1. For the same compound, the K1 [4] was 37.7 10e-3 min-1, the K2 [5] was 2.67 10e-3 min-1 and the K1 [6] was 6.79 10e-3 min-1. The Pka [7] was 4.6, the K1 [8] was 2.16 10e-3 min-1 and the K1 [9] was 35.4 10e-3 min-1.
